Our source for the stoichiometry N values is PMC11723632, “Discovery of Nanosota-EB1 and -EB2 as Novel Nanobody Inhibitors Against Ebola Virus Infection” (2024).

This data set concerns EBOV GP-ΔM (EBOV GP ectodomain lacking the mucin-like domain), Ebola virus (EBOV), strain Zaire, Q05320 33-632.

With “EBOV GP-ΔM (EBOV GP ectodomain lacking the mucin-like domain) excluding residues 312–463; N-linked glycan on Asn563; N-linked glycan on Asn563”, the stoichiometry N turned out to be 3.

Usually stoichiometry N stands for a count of units in the complex or per binding partner.
